Source: paper PMC3323551

Target: T1, His-OpaR (Vibrio parahaemolyticus RIMD 2210633) (UniProt Q79YV4)
T1 sequence: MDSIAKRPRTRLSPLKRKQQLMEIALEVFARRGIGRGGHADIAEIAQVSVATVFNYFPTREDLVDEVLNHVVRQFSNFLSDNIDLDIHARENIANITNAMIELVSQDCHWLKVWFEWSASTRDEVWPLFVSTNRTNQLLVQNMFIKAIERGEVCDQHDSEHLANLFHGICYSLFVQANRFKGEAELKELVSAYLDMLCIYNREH
Test: EMSA
Conditions: 1 mM MgCl2, 0.5 mM EDTA, 0.5 mM DTT, 50 mM NaCl, 10 mM Tris-HCl pH 7.5, 0.05 mg/ml poly(dI-dC), room temperature, 30 min; footprinting same buffer; recombinant protein; residues 1-204; protein details: 6xHis (pET28a, BamHI/HindIII); label: 5'-32P; probe letters rebuilt from the primers and the genome

**Q.** Does “TGTGGGTTGAGGTAGGTCGCACGCAAACGATCACCTAATCTTACGGCGTGTAGTGTATCACCACGAAGAGTGGGTTGAAAGTCACATCCTTTTGCGGAAAATTCTTGGGAGCGCTGCCAAATTTTCGAAAGTTTACAGCAAAACTTATCAATAATAATGACATTACTGTCTATAAATTATCCATCAGATGTTGACCTTGTGCATATGCACCATTACACTCATCACTGCTTAAAGCAATTATTAAAATAATCAATTAGGGGGTTACCCCCAACAACAACTCAAATGGCAAGGAAAATGGATATGGACTCAATTGCAAAGAGACCTAGAACTAGGC (double strand) [opaR promoter EMSA fragment]” bind?
**A.** Result: binds
